Reference: PMC6146907 (Chemnanomat, 2018)
Strings that start with PEPTIDE1 are HELM notation: dots part the residues, brackets hold end groups and non-standard residues.

Test: general procedure: Fmoc solid-phase peptide synthesis; H-L-Cys(Trt)-2-chlorotrityl resin (0.49 mmol/g); HBTU, DIPEA
Conditions: whole synthesis, 210 nm

Row | Substance | purity (crude or final not stated)
1 | PEPTIDE1{[ac].C.E.E.E.G.L.A.E.E.E.C}$$$$V2.0 | 90%
2 | Ac-CEECEG L AEEEC-OH | 91%
3 | PEPTIDE1{[ac].C.E.E.G.L.A.E.E.C}$$$$V2.0 | 92%
